Measured values from several laboratories, pooled; numbers as filed in NIAID ChemDB.

Shared fields: tests in culture; organism: HIV-1; method: p24; read-out: EC50

Neighbouring rows are from separate reports. ECn: concentration that inhibits the pathogen or its effect by n%.

CC(C)(c1ncc(-c2ccc(Cl)cc2)o1)N1CCN(C[C@@H](O)C[C@@H](Cc2nnc(-c3ccccc3)o2)C(=O)N[C@H]2c3ccccc3OC[C@H]2O)[C@H](C(=O)NCC(F)(F)F)C1 ; strain or isolate: NL4-3 WT ; cells: MT-4 ; result: <0.008 µM
Cc1cn([C@@H]2O[C@H](CO[Si](C)(C)C(C)(C)C)C3(OS(=O)(=O)C=C3N)[C@H]2O[Si](C)(C)C(C)(C)C)c(=O)n(C)c1=O ; strain or isolate: IIIB ; mutations: RT-L100I ; cells: CEM ; result: 0.042 µg/mL
CCc1cc(NCc2nc3c(C)ccc(C)c3o2)c(=O)[nH]c1C ; strain or isolate: rHXB2 ; cells: MT-4 ; result: <0.05 µM
O=C1N(Cc2ccc(CO)cc2)[C@H](Cc2ccccc2)[C@H](O)[C@@H](O)[C@@H](Cc2ccccc2)N1Cc1ccc(CO)cc1 ; strain or isolate: NL4-3 ; mutations: PR-I84V ; cells: MT-4 ; result: <3 µM
Cc1nnc(C[C@H](C[C@H](O)CN2CCN(Cc3ccc(-c4ccc(Cl)cc4)o3)C[C@H]2C(=O)NCC(F)(F)F)C(=O)N[C@H]2c3ccccc3OC[C@H]2O)o1 ; strain or isolate: NL4-3 WT ; cells: MT-4 ; result: <0.063 µM
Cc1cn([C@H]2C[C@H](N=[N+]=[N-])[C@@H](CO)O2)c(=O)[nH]c1=O ; strain or isolate: rA17 ; cells: MT-4 ; result: <0.025 µM
Cc1cc(C)c(-n2nnnc2SCC(=O)Nc2cccnc2Cl)c(C)c1 ; cells: MT-4 ; result: <10 µM
Cc1c(O)cccc1C(=O)N[C@@H](CSc1ccccc1)[C@H](O)CN1C[C@H]2CCCC[C@H]2C[C@H]1C(=O)NC(C)(C)C ; strain or isolate: Clinical isolate ; mutations: PR-L10I K43T M46L I54L L63P A71T V82A L90M Q92K ; cells: PBMC ; result: 0.41 µM
S=C(NCCc1cccs1)Nc1ccc(Br)cn1 ; strain or isolate: NRTI resistant (RT Y181C K103N) A17 variant ; mutations: RT-Y181C K103N ; cells: PBMC ; result: 3.2 µM
Cc1cn([C@H]2C[C@H](N=[N+]=[N-])[C@@H](CO)O2)c(=O)[nH]c1=O ; cells: CD4+HELA + HeLa ; result: 0.16 µM
CCCCN1C(=O)C(CC(C)C)NC(=O)C12CCN(CCCCCCc1ccccc1)CC2 ; strain or isolate: NL4-3 ; cells: PBMC ; result: >1 µM
S=C(NCCc1cccs1)Nc1ccc(Br)cn1 ; strain or isolate: IIIB ; cells: PBMC ; result: 0.014 µM
O=C(NCc1ccc(F)cc1)c1nc(N2CCCCS2(=O)=O)c2cccnc2c1O ; mutations: INTG-S153Y N155S ; result: 0.088 µM
Nc1ccn([C@H]2CC[C@@H](CO)O2)c(=O)n1 ; strain or isolate: HXB2-D (RT K65R M184V) ; mutations: RT-K65R M184V ; cells: MT-4 ; result: 5.8 µM
O=c1[nH]cnc2c1ncn2[C@H]1CC[C@@H](CO)O1 ; strain or isolate: TM ; mutations: MDR ; cells: PBMC ; result: 2.5 µM
O=C(N[C@H]1c2ccccc2OC[C@H]1O)[C@H](Cc1nnc(-c2ccccc2)o1)C[C@H](O)CN1CCN(Cc2ccc(-c3ccc(Cl)cc3)o2)C[C@H]1C(=O)NCC(F)(F)F ; strain or isolate: Q-60 Clinical isolate ; mutations: PR-L10I N37S R41K M46I I54V I62V L63P A71V V77I V82A L90M I93L ; cells: MT-4 ; result: <0.063 µM
Cc1cn([C@H]2C[C@H](N=[N+]=[N-])[C@@H](CO)O2)c(=O)[nH]c1=O ; strain or isolate: LTLV-IIIB ; cells: PBMC ; result: 0.001 µM
Cc1ccccc1Cc1cccc(C(=O)CC(=O)C(=O)O)c1 ; mutations: INTG-N155S ; result: 1.2 µM
COc1ccc(S(=O)(=O)N(CC(C)C)C[C@@H](O)[C@H](Cc2ccccc2)NC(=O)O[C@H]2CO[C@H]3OCC[C@H]32)cc1 ; strain or isolate: Clinical isolate ; mutations: PR-L10I K14R R41K M46L I54V L63P A71V V82A L90M I93L ; cells: PBMC ; result: 0.005 µM
Cc1cc(C)c(-n2nnnc2SCC(=O)Nc2cccc([N+](=O)[O-])c2)c(C)c1 ; cells: MT-4 ; result: <10 µM
CCC[C@@]1(CCc2ccccc2)CC(O)=C([C@H](CC)c2cccc(NS(=O)(=O)c3ccc(C(F)(F)F)cn3)c2)C(=O)O1 ; strain or isolate: Isolate 301-1X ritonavir-susceptible ; mutations: Ritonavir-resistant protease ; cells: PBMC ; result: 0.075 µM
Cc1cc(C)c(-n2nnnc2SCC(=O)Nc2ccccc2Cl)c(C)c1 ; cells: MT-4 ; result: <10 µM
O=c1[nH]cnc2c1ncn2[C@H]1CC[C@@H](CO)O1 ; strain or isolate: NL4-3 WT ; cells: PBMC ; result: <18 µM
CC(C)=CCN1Cc2cc(Cl)cc3[nH]c(=S)n(c23)C[C@@H]1C ; strain or isolate: IIIB ; mutations: RT-M184I ; cells: CEM ; result: 0.02 µg/mL
c1cc(CN2CCCNCCNCCCNCC2)ccc1CN1CCCNCCNCCCNCC1 ; strain or isolate: TM ; mutations: MDR ; cells: PBMC ; result: 0.008 µM
COc1cncc(-c2cnc(C(C)(C)N3CCN(C[C@@H](O)C[C@@H](Cc4nnc(-c5ccccc5)o4)C(=O)N[C@H]4c5ccccc5OC[C@H]4O)[C@H](C(=O)NCC(F)(F)F)C3)o2)c1 ; strain or isolate: K-60 Clinical isolate ; mutations: PR-L10I M46I I54V Q58E L63P I64V V77I V82F I84V L90M I93L ; cells: MT-4 ; result: <0.25 µM
C[C@H](Cn1cnc2c(N)ncnc21)OCP(=O)(O)O ; strain or isolate: SUM9 (WT) ; cells: MT-2 ; result: 2 µM
Cc1cn([C@H]2C[C@H](N=[N+]=[N-])[C@@H](CO)O2)c(=O)[nH]c1=O ; strain or isolate: XM-ABC-resistant ; mutations: RT-K65R L74V M184V Y115F ; cells: PBMC ; result: <0.04 µM
CC(C)CN(C[C@@H](O)[C@H](Cc1ccccc1)NC(=O)O[C@H]1CCOC1)S(=O)(=O)c1ccc(N)cc1 ; strain or isolate: Clinical isolate ; mutations: PR-L10I K43T M46L I54L L63P A71T V82A L90M Q92K ; cells: PBMC ; result: 0.67 µM
CC(C)(c1ncc(-c2ccc(Cl)cc2)o1)N1CCN(C[C@@H](O)C[C@@H](Cc2nnco2)C(=O)N[C@H]2c3ccccc3OC[C@H]2O)[C@H](C(=O)NCC(F)(F)F)C1 ; strain or isolate: Q-60 Clinical isolate ; mutations: PR-L10I N37S R41K M46I I54V I62V L63P A71V V77I V82A L90M I93L ; cells: MT-4 ; result: <0.031 µM
CC(C)(C)OC(=O)N[C@@H](Cc1ccccc1)[C@H](O)CNC[C@@H](O)[C@H](Cc1ccccc1)NC(=O)OC(C)(C)C ; strain or isolate: IIIB ; cells: PBMC ; result: 0.025 µM
Cc1ccnc2c1NC(=O)c1cccnc1N2C1CC1 ; strain or isolate: NRTI resistant (RT Y181C K103N) A17 variant ; mutations: RT-Y181C K103N ; cells: PBMC ; result: >100 µM
CC(C)(C)NC(=O)[C@@H]1C[C@@H]2CCCC[C@@H]2CN1C[C@@H](O)[C@H](Cc1ccccc1)NC(=O)[C@H](CC(N)=O)NC(=O)c1ccc2ccccc2n1 ; strain or isolate: HXB2 ; cells: PBMC ; result: 0.006 µM
CC(C)CN(C[C@@H](O)[C@H](Cc1ccccc1)NC(=O)[C@H](CC(N)=O)NC(=O)c1ccc2ccccc2n1)C(=O)NC(C)(C)C ; strain or isolate: NL4-3 ; mutations: PR-M46I L63P ; cells: MT-4 ; result: <0.2 µM
Oc1ccc(/C=C/c2cc(O)cc(O)c2)cc1 ; strain or isolate: EJC-X1 ; conditions: clinical isolate ; cells: PBMC ; result: >10 µM
O=c1[nH]cnc2c1ncn2[C@H]1CC[C@@H](CO)O1 ; strain or isolate: rHXB2 ; cells: MT-4 ; result: <25 µM
Cc1cn([C@H]2C[C@H](N=[N+]=[N-])[C@@H](CO)O2)c(=O)[nH]c1=O ; strain or isolate: TM ; mutations: MDR ; cells: PBMC ; result: 0.1 µM
COc1c(O)c(Cl)c2c(c1OC)-c1c(c(Cl)c(O)c(OC)c1OC)C[C@H](C)[C@H](C)C2 ; strain or isolate: IIIB ; cells: H9 ; result: 0.68 µM
CC1=C(C(=O)N2CCC(C)(N3CCN(C(c4cccc(F)c4)C4CCN(S(=O)(=O)C5CC5)CC4)[C@@H](C)C3)CC2)C(C)[NH+]([O-])C=N1 ; strain or isolate: M-tropic ; cells: PBMC ; result: 0.008 µM
O=c1[nH]cnc2c1ncn2[C@H]1CC[C@@H](CO)O1 ; strain or isolate: Isolate 2441 ; cells: PBMC ; result: 12.7 µM
CCCc1nnc(C[C@H](C[C@H](O)CN2CCN(C(C)(C)c3ncc(-c4ccc(Cl)cc4)o3)C[C@H]2C(=O)NCC(F)(F)F)C(=O)N[C@H]2c3ccccc3OC[C@H]2O)o1 ; strain or isolate: K-60 Clinical isolate ; mutations: PR-L10I M46I I54V Q58E L63P I64V V77I V82F I84V L90M I93L ; cells: MT-4 ; result: <0.016 µM
Cc1ccnc2c1NC(=O)c1cccnc1N2C1CC1 ; strain or isolate: IIIB ; mutations: RT-L100I ; cells: CEM ; result: 0.1 µg/mL
Cc1c(O)cccc1C(=O)N[C@@H](CSc1ccccc1)[C@H](O)CN1C[C@H]2CCCC[C@H]2C[C@H]1C(=O)NC(C)(C)C ; strain or isolate: JSL ; mutations: MDR ; cells: PBMC ; result: >1 µM
CC(C)(C)NC(=O)[C@@H]1C[C@@H]2CCCC[C@@H]2CN1C[C@@H](O)[C@H](Cc1ccccc1)NC(=O)[C@H](CC(N)=O)NC(=O)c1ccc2ccccc2n1 ; strain or isolate: Clinical isolate ; mutations: PR-L10I K14R R41K M46L I54V L63P A71V V82A L90M I93L ; cells: PBMC ; result: 0.19 µM
CC(C)(c1ncc(-c2ccc(F)cc2)o1)N1CCN(C[C@@H](O)C[C@@H](Cc2nnco2)C(=O)N[C@H]2c3ccccc3OC[C@H]2O)[C@H](C(=O)NCC(F)(F)F)C1 ; strain or isolate: Q-60 Clinical isolate ; mutations: PR-L10I N37S R41K M46I I54V I62V L63P A71V V77I V82A L90M I93L ; cells: MT-4 ; result: <0.031 µM
COc1c(O)c(I)c2c(c1OC)-c1c(c(I)c(O)c(OC)c1OC)C[C@H](C)[C@H](C)C2 ; strain or isolate: IIIB ; cells: H9 ; result: 0.06 µM
Cc1occc1C(=S)Nc1ccc(Cl)c(/C=N/OC(C)(C)C)c1 ; strain or isolate: IIIB ; mutations: RT-M184V ; cells: CEM ; result: 0.007 µg/mL
O=c1c2ccccc2n2nnc3ccc(NCCCN4CCN(CCCNc5ccc6nnn7c8ccccc8c(=O)c5c67)CC4)c1c32 ; strain or isolate: CLADE C ; cells: PBL ; result: 0.0064 µM
Cc1cc(C)c(-n2nnnc2SCC(=O)Nc2cc(C)on2)c(C)c1 ; cells: MT-4 ; result: <10 µM

The last 3 rows once more:

Cc1occc1C(=S)Nc1ccc(Cl)c(/C=N/OC(C)(C)C)c1 ; strain or isolate: IIIB ; mutations: RT-M184V ; cells: CEM ; result: 0.007 µg/mL
O=c1c2ccccc2n2nnc3ccc(NCCCN4CCN(CCCNc5ccc6nnn7c8ccccc8c(=O)c5c67)CC4)c1c32 ; strain or isolate: CLADE C ; cells: PBL ; result: 0.0064 µM
Cc1cc(C)c(-n2nnnc2SCC(=O)Nc2cc(C)on2)c(C)c1 ; cells: MT-4 ; result: <10 µM